Where two headings read alike, the source gives them in different places.
How the values were obtained:
human α7 nAChR = human α7 nAChR (Homo sapiens, UniProt P36544); details: for IC50: read-out: α7 (IC50), TEVC, Xenopus oocytes
rat α3β2 nAChR = rat α3β2 nAChR (Rattus norvegicus, UniProt P04757+P12390); details: for IC50: read-out: α3β2 (IC50), TEVC, Xenopus oocytes
[1] = 100 µM ACh, 5 min peptide incubation, -70 mV, 26 °C, 95% CI in parentheses, mean of n = 3-10

By UniProt entry, the sequences of proteins in these tests, tags left out. Residues count along the entry.
UniProt P36544, 23-502 limits assumed: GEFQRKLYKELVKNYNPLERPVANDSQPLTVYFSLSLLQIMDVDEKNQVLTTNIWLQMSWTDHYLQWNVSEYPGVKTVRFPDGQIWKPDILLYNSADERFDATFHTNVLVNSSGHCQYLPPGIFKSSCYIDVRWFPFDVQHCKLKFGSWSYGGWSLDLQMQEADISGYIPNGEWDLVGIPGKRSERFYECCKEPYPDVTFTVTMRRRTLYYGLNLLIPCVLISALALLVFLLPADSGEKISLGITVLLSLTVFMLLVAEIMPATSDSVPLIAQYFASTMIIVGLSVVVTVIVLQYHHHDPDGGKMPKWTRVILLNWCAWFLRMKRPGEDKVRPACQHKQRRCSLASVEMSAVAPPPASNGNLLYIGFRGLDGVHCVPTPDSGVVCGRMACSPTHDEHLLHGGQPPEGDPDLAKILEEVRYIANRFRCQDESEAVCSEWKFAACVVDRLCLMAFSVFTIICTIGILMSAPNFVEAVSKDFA
UniProt P04757, 26-499 limits assumed: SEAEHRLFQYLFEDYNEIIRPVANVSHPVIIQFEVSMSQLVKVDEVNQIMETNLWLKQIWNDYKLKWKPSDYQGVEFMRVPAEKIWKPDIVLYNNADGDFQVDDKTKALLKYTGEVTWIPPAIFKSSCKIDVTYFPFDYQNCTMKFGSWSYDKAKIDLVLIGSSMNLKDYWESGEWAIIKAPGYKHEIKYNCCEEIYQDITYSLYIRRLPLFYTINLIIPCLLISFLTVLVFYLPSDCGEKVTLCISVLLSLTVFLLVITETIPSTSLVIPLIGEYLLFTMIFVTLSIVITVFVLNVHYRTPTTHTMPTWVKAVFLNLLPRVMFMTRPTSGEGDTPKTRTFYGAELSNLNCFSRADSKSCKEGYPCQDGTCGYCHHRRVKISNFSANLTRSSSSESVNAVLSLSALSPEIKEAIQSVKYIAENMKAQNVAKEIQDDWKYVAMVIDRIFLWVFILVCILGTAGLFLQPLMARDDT
UniProt P12390, 25-500 limits assumed: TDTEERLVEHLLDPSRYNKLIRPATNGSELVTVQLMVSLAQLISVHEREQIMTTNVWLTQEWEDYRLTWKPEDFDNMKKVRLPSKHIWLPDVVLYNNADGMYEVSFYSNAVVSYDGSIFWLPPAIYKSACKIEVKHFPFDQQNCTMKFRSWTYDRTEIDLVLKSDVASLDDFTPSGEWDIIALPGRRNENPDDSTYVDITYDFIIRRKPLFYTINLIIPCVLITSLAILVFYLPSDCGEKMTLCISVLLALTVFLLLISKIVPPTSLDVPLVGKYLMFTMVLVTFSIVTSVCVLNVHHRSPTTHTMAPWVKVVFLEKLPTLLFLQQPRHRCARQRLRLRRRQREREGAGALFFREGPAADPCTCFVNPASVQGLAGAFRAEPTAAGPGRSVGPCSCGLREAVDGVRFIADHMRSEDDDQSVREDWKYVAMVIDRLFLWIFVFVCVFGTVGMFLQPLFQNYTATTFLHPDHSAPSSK

SMILES | IC50 (human α7 nAChR; [1]) [µM] | IC50 (rat α3β2 nAChR; [1]) [µM] | blocking activity on α7 nAChR (human α7 nAChR; at a concentration of 10 μM) | IC50 (human α7 nAChR; n = 3-10) [µM] | blocking activity on α3β2 nAChR (rat α3β2 nAChR; at a concentration of 10 μM) | IC50 (rat α3β2 nAChR; n = 3-10) [µM]
CC[C@H](C)[C@@H]1NC(=O)[C@H](CC(N)=O)NC(=O)[C@@H]2CCCN2C(=O)[C@H](CC(N)=O)NC(=O)[C@H](CC(N)=O)NC(=O)[C@H](C(C)C)NC(=O)[C@H](CCCNC(=N)N)NC(=O)[C@@H]2CSSC[C@H](NC(=O)CNC(=O)[C@@H](N)CO)C(=O)N[C@@H](CSc3nc(Cl)nc(n3)NCc3cccc(c3)CNc3nc(Cl)nc(n3)SC[C@@H](C(N)=O)NC1=O)C(=O)N[C@@H](CO)C(=O)N[C@@H](CC(N)=O)C(=O)N1CCC[C@H]1C(=O)N[C@@H](C)C(=O)N2 | 0.0498 | 0.05 | – | – | – | –
CC[C@H](C)[C@@H]1NC(=O)[C@H](CC(N)=O)NC(=O)[C@@H]2CCCN2C(=O)[C@H](CC(N)=O)NC(=O)[C@H](CC(N)=O)NC(=O)[C@H](C(C)C)NC(=O)[C@H](CCCNC(=N)N)NC(=O)[C@@H]2CSSC[C@H](NC(=O)CNC(=O)[C@@H](N)CO)C(=O)N[C@@H](CSCc3cccc(c3)CSC[C@@H](C(N)=O)NC1=O)C(=O)N[C@@H](CO)C(=O)N[C@@H](CC(N)=O)C(=O)N1CCC[C@H]1C(=O)N[C@@H](C)C(=O)N2 | 0.0094 | 0.0297 | – | – | – | –
CC[C@H](C)[C@@H]1NC(=O)[C@H](CC(N)=O)NC(=O)[C@@H]2CCCN2C(=O)[C@H](CC(N)=O)NC(=O)[C@H](CC(N)=O)NC(=O)[C@H](C(C)C)NC(=O)[C@H](CCCNC(=N)N)NC(=O)[C@@H]2CSCc3ccccc3CSC[C@H](NC(=O)CNC(=O)[C@@H](N)CO)C(=O)N[C@@H](CSSC[C@@H](C(N)=O)NC1=O)C(=O)N[C@@H](CO)C(=O)N[C@@H](CC(N)=O)C(=O)N1CCC[C@H]1C(=O)N[C@@H](C)C(=O)N2 | – | – | did not show potent blocking activity | > 10 | did not show potent blocking activity | > 10
CC[C@H](C)[C@@H]1NC(=O)[C@H](CC(N)=O)NC(=O)[C@@H]2CCCN2C(=O)[C@H](CC(N)=O)NC(=O)[C@H](CC(N)=O)NC(=O)[C@H](C(C)C)NC(=O)[C@H](CCCNC(=N)N)NC(=O)[C@@H]2CSSC[C@H](NC(=O)CNC(=O)[C@@H](N)CO)C(=O)N[C@@H](CSCc3ccccc3CSC[C@@H](C(N)=O)NC1=O)C(=O)N[C@@H](CO)C(=O)N[C@@H](CC(N)=O)C(=O)N1CCC[C@H]1C(=O)N[C@@H](C)C(=O)N2 | 0.0116 | 0.0133 | – | – | – | –
CC[C@H](C)[C@@H]1NC(=O)[C@H](CC(N)=O)NC(=O)[C@@H]2CCCN2C(=O)[C@H](CC(N)=O)NC(=O)[C@H](CC(N)=O)NC(=O)[C@H](C(C)C)NC(=O)[C@H](CCCNC(=N)N)NC(=O)[C@@H]2CSSC[C@H](NC(=O)CNC(=O)[C@@H](N)CO)C(=O)N[C@@H](CSCCS(=O)(=O)N(c3ccccc3)S(=O)(=O)CCSC[C@@H](C(N)=O)NC1=O)C(=O)N[C@@H](CO)C(=O)N[C@@H](CC(N)=O)C(=O)N1CCC[C@H]1C(=O)N[C@@H](C)C(=O)N2 | 0.0228 | 0.12 | – | – | – | –
CC[C@H](C)[C@@H]1NC(=O)[C@H](CC(N)=O)NC(=O)[C@@H]2CCCN2C(=O)[C@H](CC(N)=O)NC(=O)[C@H](CC(N)=O)NC(=O)[C@H](C(C)C)NC(=O)[C@H](CCCNC(=N)N)NC(=O)[C@@H]2CSSC[C@H](NC(=O)CNC(=O)[C@@H](N)CO)C(=O)N[C@@H](CSCc3ccc(cc3)CSC[C@@H](C(N)=O)NC1=O)C(=O)N[C@@H](CO)C(=O)N[C@@H](CC(N)=O)C(=O)N1CCC[C@H]1C(=O)N[C@@H](C)C(=O)N2 | 0.0076 | 0.0436 | – | – | – | –

— publication PMC11278161 (Marine Drugs, 2024)
